Data from US20230102223A1, “PHARMACEUTICAL COMPOSITIONS WITH ANTIFLAVIVIRAL ACTIVITY” (HEALTH RESEARCH, INC., priority 2016, published 2023).

Columns and labels:
WNV = format: cell-based, West Nile virus
DENV2 = details: Table 3, CC50/EC50
JEV = format: cell-based, Japanese encephalitis virus; details: CC50/EC50
YFV = format: cell-based, yellow fever virus; details: CC50/EC50
[1] = tested on: ZIKV (Puerto Rico strain PRVABC59); assay: Viral titer reduction assay in A549 cells, ZIKV; format: cell-based, Zika virus

Compound	TI (WNV; WNV*, in dark, CC50/EC50)	TI (DENV2)	TI (JEV; JEV*, in dark)	TI (YFV; YFV*, in dark)	TI ([1]; ZIKV*, in dark, CC50/EC50)	TI ([1]; ZIKV, CC50/EC50)	TI (WNV)	TI [1]	TI (WNV; WNV, CC50/EC50)	TI (JEV; JEV)	TI (YFV; YFV)
3-[10,15,20-tris(3-hydroxyphenyl)-2,3,22,24-tetrahydroporphyrin-5-yl]phenol [Temoporfin]	4,070	2,035	3,700	6,783	1,850	1,696					
CN(C)c1ccc2nc3ccc(=[N+](C)C)cc-3sc2c1 [Methylene blue, [7-(dimethylamino)phenothiazin-3-ylidene]-dimethylazanium;chloride]							19	6.8			
O=C(Nc1ccc([N+](=O)[O-])cc1Cl)c1cc(Cl)ccc1O [Niclosamide, 5-chloro-N-(2-chloro-4-nitrophenyl)-2-hydroxybenzamide]		9				10			9	3.8	5.7

Like-named read-outs stand apart in the source and are kept apart here.
